Drawing on PubChem BioAssay AID588726 (The Scripps Research Institute Molecular Screening Center, 2011), this text covers inhibition for 47 compounds.

The chains behind the UniProt entries cited, without tags or fusion partners.
UniProt P9WQA3, whole entry: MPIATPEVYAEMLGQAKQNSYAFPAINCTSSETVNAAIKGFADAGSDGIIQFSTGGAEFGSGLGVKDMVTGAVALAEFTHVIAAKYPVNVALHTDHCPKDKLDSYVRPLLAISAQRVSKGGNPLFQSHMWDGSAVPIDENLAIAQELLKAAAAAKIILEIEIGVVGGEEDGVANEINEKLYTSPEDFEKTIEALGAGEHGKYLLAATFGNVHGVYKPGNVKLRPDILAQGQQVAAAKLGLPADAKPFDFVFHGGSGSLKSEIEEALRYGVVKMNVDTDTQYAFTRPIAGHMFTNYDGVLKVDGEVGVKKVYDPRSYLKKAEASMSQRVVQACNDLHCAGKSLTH

For orientation: inhibition means the drop in the measured response relative to a control, in per cent.

The entries are a selection whose mix differs from that of the whole data set. The source made the active and inactive calls. Cut-off read from the data, not from the text of the source: active = inhibition above about 27%; inactive = the rest.

This experiment deals with Fructose-bisphosphate aldolase (Mycobacterium tuberculosis (strain ATCC 25618 / H37Rv)) (UniProt P9WQA3). As to the kind of experiment: M. tuberculosis aldolase activity blockers – biochemical, fluorescence, strain H37Rv, primary screen (AID 588726).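 Note: 0% = vehicle and 100% = reference inhibitor.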 Particulars: purified M. tuberculosis FBA, fluorescence read-out; at 1 µM; hits give high values.
Turning to `CCCOc1ccc(C(=O)NCC2(N(C)C)CCCCC2)cc1OC`, the inhibition is inactive: -0.38%.
In the case of `CCCCn1nnnc1C(c1ccccc1)N1CCC(n2c(=O)[nH]c3ccccc32)CC1` (configuration not stated) it was inactive: -1.78%.
Under `COc1cc(C(=O)NCC2(N3CCOCC3)CCCCC2)cc(OC)c1C` stands inactive: -0.91%; under `O=C(NCC1(N2CCOCC2)CCCCC1)c1cc(Br)ccc1Cl`, inactive: 0.97%; under `O=c1[nH]c2ccccc2n1C1CCN(C(c2cccs2)c2nnnn2C2CCCCC2)CC1` (configuration not stated), inactive: -1.92%.
Regarding `COc1ccc(C(=O)NCC2(N3CCOCC3)CCCCC2)cc1OC`, the inhibition is inactive: 1.05%.
In the case of `O=c1[nH]c2ccccc2n1C1CCN(C(c2ccnc3ccccc23)c2nnnn2C2CCCC2)CC1` (configuration not stated), the inhibition is inactive: -0.04%.
In the case of `COc1cccc(C(c2nnnn2C(C)(C)C)N2CCC(n3c(=O)[nH]c4ccccc43)CC2)c1OC` (configuration not stated) it was inactive: -1.03%.
In the case of `CCOC(=O)N1CCC(Nc2ccc(C)cc2)CC1` it was inactive: 1.13%; in that of `N/C(=N\O)c1c(N)no[n+]1[O-]`, inactive: -0.75%; in that of `O=C(OC1CN2CCC1CC2)C1c2ccccc2C=Cc2ccccc21` (configuration not stated), inactive: 10.2%.
In the case of `O=c1[nH]c2ccccc2n1C1CCN(C(c2cccs2)c2nnnn2C2CCCC2)CC1` (configuration not stated) it was inactive: 1.77%; in that of `CCCCn1nnnc1C(c1cccc(OC)c1OC)N1CCC(n2c(=O)[nH]c3ccccc32)CC1` (configuration not stated), inactive: 0.33%; in that of `N#Cc1ccc(C(=O)NCC2(N3CCCCC3)CCCCC2)cc1`, inactive: -1.38%.
Regarding `CC(C)(C)OC(=O)N1CCC(N(C(=O)c2ccccc2)c2ccc(Cl)cc2)CC1`, the inhibition was inactive: 1.57%.
In the case of `CN(C)C1(CNC(=O)c2cccc(C#N)c2)CCCCC1` it was inactive: 4.68%; in that of `c1ccc(CN2CCC(Nc3ccccc3)CC2)cc1`, inactive: 3.83%.
Under `Cc1cc(N(CCCl)CCCl)ccc1C=O` stands inactive: -1.59%.
As to `O=c1[nH]c2ccccc2n1C1CCN(C(c2ccccc2)c2nnnn2C2CCCC2)CC1` (configuration not stated), the inhibition is inactive: 2.17%.
In the case of `CCCN1CCC(Nc2cc(OC)cc(OC)c2)CC1` it was inactive: 1.59%.
In the case of `CC(C)(C)n1nnnc1C(c1cccc2ccccc12)N1CCC(n2c(=O)[nH]c3ccccc32)CC1` (configuration not stated) it was inactive: -3.57%; in that of `CC(=O)N(c1ccccc1)C1CCNCC1`, inactive: 0.71%.
In the case of `COc1cccc(C(c2nnnn2C2CCCCC2)N2CCC(n3c(=O)[nH]c4ccccc43)CC2)c1OC` (configuration not stated) it was inactive: -0.1%; in that of `CCC(c1nnnn1C1CCCCC1)N1CCC(n2c(=O)[nH]c3ccccc32)CC1` (configuration not stated), inactive: 0.82%.
As for `O=c1[nH]c2ccccc2n1C1CCN(C(c2ccnc3ccccc23)c2nnnn2C2CCCCC2)CC1` (configuration not stated), the inhibition is inactive: 2.2%.
Turning to `COc1cc(OC)cc(C(=O)NCC2(N3CCCCC3)CCCCC2)c1`, the inhibition was inactive: -0.39%.
Consider `Cc1ccc(C(=O)NCC2(N3CCCCC3)CCCCC2)o1`, for which the inhibition is inactive: 1.82%.
Take `Fc1ccccc1NC1CCN(Cc2ccccc2)CC1`: the inhibition is inactive: 4.23%.
Under `Cc1ccc(NC2(C#N)CCN(Cc3ccccc3)CC2)cc1` stands inactive: 0.37%; under `Cc1ccccc1NC1(C#N)CCN(Cc2ccccc2)CC1`, inactive: -2.97%; under `CC(C)(C)n1nnnc1C(c1ccnc2ccccc12)N1CCC(n2c(=O)[nH]c3ccccc32)CC1` (configuration not stated), inactive: -2.02%.
Under `CCN1CCC(Nc2cccc(F)c2)CC1` stands inactive: 5.56%; under `COc1ccc(C(c2nnnn2C2CCCCC2)N2CCC(n3c(=O)[nH]c4ccccc43)CC2)cc1` (configuration not stated), inactive: -1.56%; under `O=C(NCC1(N2CCCCC2)CCCCC1)c1ccco1`, inactive: 0.15%.
Under `Cn1c(=O)[nH]cc(N(CCCl)CCCl)c1=O` stands inactive: -3.95%; under `CN(C)c1ccc(C(=O)NCC2(N3CCCCC3)CCCCC2)cc1`, inactive: -1.41%.
As for `CCOc1ncccc1C(=O)NCC1(N2CCOCC2)CCCCC1`, the inhibition was inactive: 1.07%.
Turning to `CN1CCC(Nc2ccc(F)c(Cl)c2)CC1`, the inhibition is inactive: 1.86%.
In the case of `CC(C)(C)OC(=O)N1CCC(Nc2ccccc2)CC1` it was inactive: 5.44%; in that of `O=C(O)C1(Nc2ccccc2)CCN(Cc2ccccc2)CC1`, inactive: 2.65%.
Under `CCCOc1ccc(C(=O)NCC2(N(C)C)CCCCC2)cc1` stands inactive: -3.77%.
In the case of `O=c1[nH]c2ccccc2n1C1CCN(C(c2cc3ccccc3o2)c2nnnn2C2CCCC2)CC1` (configuration not stated) it was inactive: -3.15%; in that of `COc1cc(OC)cc(C(=O)NCC2(N3CCOCC3)CCCCC2)c1`, inactive: -4.25%; in that of `COc1cccc(C(c2nnnn2C2CCCC2)N2CCC(n3c(=O)[nH]c4ccccc43)CC2)c1OC` (configuration not stated), inactive: -0.24%.
In the case of `COc1cccc(C(=O)N(c2cc(C)cc(C)c2)C2CCN(C(=O)OC(C)(C)C)CC2)c1`, the inhibition was inactive: 1%.
Under `CCC(CO)(C(=O)OC1CN2CCC1CC2)c1ccccc1` (configuration not stated) stands inactive: 3.44%; under `CN1CCC(Nc2ccc(Cl)cc2)CC1`, inactive: 0.76%.
